Results of unrelated studies side by side (data: NIAID ChemDB).

All rows: whole-cell or culture tests; agent: Candida glabrata; read by: broth dilution; read-out: MIC

Blank or dashed fields: not listed here. Neighbouring rows are from separate reports.

{"SMILES": "COc1cc(NC(C)CCCNC(=O)CCC(NC(=O)[C@H](N)CCCCN)C(=O)O)c2nc(C(C)(C)C)ccc2c1", "value": ">20 µg/mL"}
{"SMILES": "O=C(CCn1ccnc1)c1ccc2ccccc2c1", "strain": "RTCC 1040", "value": "64 µg/mL"}
{"SMILES": "C[C@H]1[C@H](O)[C@@H](C)/C=C/C=C/C=C/C=C/C=C/C=C/C=C/[C@H](O[C@@H]2O[C@H](C)[C@@H](O)[C@H](N)[C@@H]2O)C[C@@H]2O[C@](O)(C[C@@H](O)C[C@@H](O)CC[C@H](O)[C@@H](O)C[C@@H](O)CC(=O)O[C@H]1C)C[C@H](O)[C@H]2C(=O)O", "strain": "90030", "value": "0.03 µg/mL"}
{"SMILES": "CC1=C2C(=O)c3c(C)coc3C[C@@]2(C)[C@H](O)C[C@H]1O", "strain": "ATCC 90030", "value": ">256 µg/mL"}
{"SMILES": "N=c1oc2ccccc2c2csc(N)c12", "strain": "IP35", "value": "8 µg/mL"}
{"SMILES": "CCC(C)CC(C)CCCCCCCCC(=O)N[C@H]1C[C@@H](O)[C@H](NCCN)NC(=O)[C@@H]2[C@@H](O)CCN2C(=O)[C@H]([C@H](O)CCN)NC(=O)[C@H]([C@H](O)[C@@H](O)c2ccc(O)cc2)NC(=O)[C@@H]2C[C@@H](O)CN2C(=O)[C@H]([C@@H](C)O)NC1=O", "conditions": "pH 6", "strain": "40 isolates", "value": "0.5 µg/mL"}
{"SMILES": "O=C(CCn1ccnc1)c1cccc(C(O)c2ccc(Br)cc2)c1", "strain": "RTCC 1040", "value": "64 µg/mL"}
{"SMILES": "CCCCCCCCCCCC[n+]1cccc2ccccc21", "conditions": "24 h", "strain": "20/I", "value": "0.00781 µg/mL"}
{"SMILES": "O/N=C(/COc1cccc(Cl)c1)c1ccccc1", "conditions": "24 h", "strain": "ATCC 90030", "value": "15.63 µg/mL"}
{"SMILES": "Cc1ccc(N2N=C(c3c[nH]c4ccccc34)CC2c2cc(Cl)cc(Cl)c2)cc1", "strain": "ATCC 36583", "value": "100 µg/mL"}
{"SMILES": "O=P(O)(O)OP(=O)(O)OP(=O)(O)O", "strain": "H30", "value": "390 µg/mL"}
{"SMILES": "CCC[CH2][Sn+3].Fc1ccccc1N=C([S-])N/N=C(\\c1ccccc1)c1ccccn1", "strain": "ATCC 90030", "value": "13.42 µM"}
{"SMILES": "COc1ccc(OC/C(=N/O)c2ccccc2)cc1", "conditions": "48 h", "strain": "ATCC 90030", "value": ">125 µg/mL"}
{"SMILES": "CCCCCCCCCCCCCCCC(=O)NC(CCCCN)C(=O)NC(CCCCN)C(N)=O", "strain": "4812", "value": "4 µg/mL"}
{"SMILES": "C[C@H]1[C@H](O)[C@@H](C)/C=C/C=C/C=C/C=C/C=C/C=C/C=C/[C@H](O[C@@H]2O[C@H](C)[C@@H](O)[C@H](N)[C@@H]2O)C[C@@H]2O[C@](O)(C[C@@H](O)C[C@@H](O)CC[C@H](O)[C@@H](O)C[C@@H](O)CC(=O)O[C@H]1C)C[C@H](O)[C@H]2C(=O)O", "strain": "ATCC 9030", "value": "0.25 µg/mL"}
{"SMILES": "Nc1nc(=O)n([C@H]2O[C@@H](CO)[C@H](O)[C@@H]2O)cc1F", "strain": "ATCC 24220", "value": "0.75 µg/mL"}
{"SMILES": "C/C(=N\\NC([S-])=Nc1ccccc1Cl)c1ccccn1.CCC[CH2][Sn+3]", "strain": "ATCC 90030", "value": "14.53 µM"}
{"SMILES": "C[C@@H](c1ncncc1F)[C@](O)(Cn1cncn1)c1ccc(F)cc1F", "strain": "8659", "value": "0.5 µg/mL"}
{"SMILES": "O=C(N/N=C/c1ccc(Br)cc1)c1ccc(CNc2nc3ccccc3[nH]2)cc1", "strain": "ATCC 36583", "value": "100 µg/mL"}
{"SMILES": "O=C(COc1cccc(Cl)c1)c1ccccc1", "conditions": "24 h", "strain": "ATCC 90030", "value": ">125 µg/mL"}
{"SMILES": "CCC(C)n1ncn(-c2ccc(N3CCN(c4ccc(OC[C@H]5CO[C@](Cn6cncn6)(c6ccc(Cl)cc6Cl)O5)cc4)CC3)cc2)c1=O", "conditions": "pH 4", "strain": "40 isolates", "value": "1 µg/mL"}
{"SMILES": "Cc1ccc(N2N=C(c3c[nH]c4ccccc34)CC2c2cccc(Cl)c2Cl)cc1", "strain": "ATCC 36583", "value": "200 µg/mL"}
{"SMILES": "CCCC[C@@H](C)/C=C(C)/C=C(\\C)C(=O)N/C(=C/[C@@](C)(O)/C=C/C=C/C=C/C(=O)NC1=C(O)CCC1=O)C(=O)[C@@H]1CO1", "strain": "1", "value": "25 µM"}
{"SMILES": "Clc1ccc(COC(Cn2ccnc2)c2ccc(Cl)cc2Cl)c(Cl)c1", "conditions": "pH 4", "strain": "40 isolates", "value": "2 µg/mL"}
{"SMILES": "CCC(C)CC(C)CCCCCCCCC(=O)N[C@H]1C[C@@H](O)[C@H](NCCN)NC(=O)[C@@H]2[C@@H](O)CCN2C(=O)[C@H]([C@H](O)CCN)NC(=O)[C@H]([C@H](O)[C@@H](O)c2ccc(O)cc2)NC(=O)[C@@H]2C[C@@H](O)CN2C(=O)[C@H]([C@@H](C)O)NC1=O", "strain": "C110", "value": "0.06 µg/mL"}
{"SMILES": "CCC[CH2][Sn+3].[S-]C(=Nc1ccccc1Cl)N/N=C(\\c1ccccc1)c1ccccn1", "strain": "ATCC 90030", "value": "26.12 µM"}
{"SMILES": "O=C(/C=C/c1cccc(Cl)c1Cl)c1c[nH]c2ccccc12", "strain": "ATCC 36583", "value": "200 µg/mL"}
{"SMILES": "CC1(C)S[C@@H]2[C@H](NC(=O)[C@H](N)c3ccccc3)C(=O)N2[C@H]1C(=O)O", "strain": "0902", "value": ">100 µg/mL"}
{"SMILES": "CCC(C)CC(C)CCCCCCCCC(=O)N[C@H]1C[C@@H](O)[C@H](NCCN)NC(=O)[C@@H]2[C@@H](O)CCN2C(=O)[C@H]([C@H](O)CCN)NC(=O)[C@H]([C@H](O)[C@@H](O)c2ccc(O)cc2)NC(=O)[C@@H]2C[C@@H](O)CN2C(=O)[C@H]([C@@H](C)O)NC1=O", "strain": "1", "value": "0.063 µg/mL"}
{"SMILES": "CCCCCCCCCCCC(=O)NCCCCN", "strain": "ATCC 90030", "value": "32 µg/mL"}
{"SMILES": "O=C(COc1ccc(F)cc1)c1ccccc1", "conditions": "48 h", "strain": "ATCC 90030", "value": ">125 µg/mL"}
{"SMILES": "O=C(CCn1ccnc1)c1cccc2ccccc12", "strain": "RTCC 1054", "value": ">64 µg/mL"}
{"SMILES": "CCOc1ccc2nc3cc(N=C4NC(=O)/C(=C\\c5ccc([N+](=O)[O-])o5)S4)ccc3c(N)c2c1", "value": "16.5 µg/mL"}
{"SMILES": "CN(C)c1ccc(/C=N/NC(=O)c2ccc(CNc3nc4ccccc4[nH]3)cc2)cc1", "strain": "ATCC 36583", "value": "100 µg/mL"}
{"SMILES": "Cc1ccc(C(O)c2cccc(C(=O)CCn3ccnc3)c2)cc1", "strain": "RTCC 1040", "value": "64 µg/mL"}
{"SMILES": "COc1ccccc1OCC(=O)c1ccccc1", "conditions": "48 h", "strain": "ATCC 90030", "value": ">125 µg/mL"}
{"SMILES": "Cc1coc2c1C(=O)[C@@H]1[C@@](C)(C2)[C@H](O)CC[C@@]1(C)O", "strain": "ATCC 90030", "value": ">256 µg/mL"}
{"SMILES": "C[C@H]1[C@H](O)[C@@H](C)/C=C/C=C/C=C/C=C/C=C/C=C/C=C/[C@H](O[C@@H]2O[C@H](C)[C@@H](O)[C@H](N)[C@@H]2O)C[C@@H]2O[C@](O)(C[C@@H](O)C[C@@H](O)CC[C@H](O)[C@@H](O)C[C@@H](O)CC(=O)O[C@H]1C)C[C@H](O)[C@H]2C(=O)O", "value": "1.56 µg/mL"}
{"SMILES": "O=C(/C=C/c1cc(Cl)cc(Cl)c1)c1c[nH]c2ccccc12", "strain": "ATCC 36583", "value": "200 µg/mL"}
{"SMILES": "CC[C@@H]([C@H](C)O)n1ncn(-c2ccc(N3CCN(c4ccc(OC[C@@H]5CO[C@@](Cn6cncn6)(c6ccc(F)cc6F)C5)cc4)CC3)cc2)c1=O", "strain": "8658", "value": "0.25 µg/mL"}
{"SMILES": "C[C@H]1[C@H](O)[C@@H](C)/C=C/C=C/C=C/C=C/C=C/C=C/C=C/[C@H](O[C@@H]2O[C@H](C)[C@@H](O)[C@H](N)[C@@H]2O)C[C@@H]2O[C@](O)(C[C@@H](O)C[C@@H](O)CC[C@H](O)[C@@H](O)C[C@@H](O)CC(=O)O[C@H]1C)C[C@H](O)[C@H]2C(=O)O", "strain": "537", "value": "0.5 µg/mL"}
{"SMILES": "O=C(COc1cccc(F)c1)c1ccccc1", "conditions": "24 h", "strain": "ATCC 90030", "value": ">125 µg/mL"}
{"SMILES": "CO[C@@]12OC(=O)C(C)=C1C1=C3[C@](C)([C@@H]4C[C@@H]4[C@@]3(O)C[C@@H]3[C@]14OC(=O)C1=C4C[C@H]4[C@](O)(COC(=O)/C(C)=C/COC(=O)CCC(=O)OC1)[C@H]1C[C@H]1[C@]34C)[C@H]2O", "strain": "ATCC 90030", "value": ">256 µg/mL"}
{"SMILES": "O=C(CCn1ccnc1)c1ccc(Br)cc1", "strain": "RTCC 1054", "value": ">64 µg/mL"}
{"SMILES": "O=C1C=CC[C@H](/C=C/c2ccccc2)O1", "value": "62.1 µg/mL"}
{"SMILES": "CCN(CC)c1ccc(/C=N/NC(=O)c2ccc(CNc3nc4ccccc4[nH]3)cc2)cc1", "strain": "ATCC 36583", "value": "50 µg/mL"}

For reference, 6 entries again:

SMILES | conditions | strain | value
C[C@H]1[C@H](O)[C@@H](C)/C=C/C=C/C=C/C=C/C=C/C=C/C=C/[C@H](O[C@@H]2O[C@H](C)[C@@H](O)[C@H](N)[C@@H]2O)C[C@@H]2O[C@](O)(C[C@@H](O)C[C@@H](O)CC[C@H](O)[C@@H](O)C[C@@H](O)CC(=O)O[C@H]1C)C[C@H](O)[C@H]2C(=O)O |  |  | 1.56 µg/mL
CO[C@@]12OC(=O)C(C)=C1C1=C3[C@](C)([C@@H]4C[C@@H]4[C@@]3(O)C[C@@H]3[C@]14OC(=O)C1=C4C[C@H]4[C@](O)(COC(=O)/C(C)=C/COC(=O)CCC(=O)OC1)[C@H]1C[C@H]1[C@]34C)[C@H]2O |  | ATCC 90030 | >256 µg/mL
Cc1ccc(C(O)c2cccc(C(=O)CCn3ccnc3)c2)cc1 |  | RTCC 1040 | 64 µg/mL
CCC[CH2][Sn+3].Fc1ccccc1N=C([S-])N/N=C(\c1ccccc1)c1ccccn1 |  | ATCC 90030 | 13.42 µM
COc1ccc(OC/C(=N/O)c2ccccc2)cc1 | 48 h | ATCC 90030 | >125 µg/mL
CCC(C)CC(C)CCCCCCCCC(=O)N[C@H]1C[C@@H](O)[C@H](NCCN)NC(=O)[C@@H]2[C@@H](O)CCN2C(=O)[C@H]([C@H](O)CCN)NC(=O)[C@H]([C@H](O)[C@@H](O)c2ccc(O)cc2)NC(=O)[C@@H]2C[C@@H](O)CN2C(=O)[C@H]([C@@H](C)O)NC1=O |  | C110 | 0.06 µg/mL